A mixed list of measured activities; the numbers were collected in NIAID ChemDB.

Common to all: tests in culture; species: Mycobacterium tuberculosis

An empty or dashed field is not shown. A number after MIC or MFC names an inhibition level or a share of isolates. MIC bound: limit read from a one-dose screen. Two numbers with a dash give a range or band. Neighbouring rows are from separate reports. Percent inhibition refers to the dose given; in toxicity tests it is the harm to the cells. ECn is the concentration giving n% inhibition of infection, replication or growth.

structure | endpoint | strain | dose | cell line | read by | mutations | value
Cc1ccc2c3c1C(CN)OB3OCCO2 | MIC | H37Rv |  |  | broth dilution / resazurin |  | 0.3 µM
Cc1cc2c(cc1C)[n+]([O-])c(C#N)c(N)[n+]2[O-] | inhibition | H37Rv | 6.25 µg/mL |  |  |  | 97%
CC[C@H](/C=C/[C@@H](C)[C@H]1CC[C@H]2[C@@H]3C[C@@H](O)C4=CC(=O)CC[C@]4(C)[C@H]3CC[C@]12C)C(C)C | MIC | H37Rv |  |  |  |  | 2.2 µg/mL
O=C(NNC(=S)Nc1ccccc1Cl)c1sc2ccc(Cl)cc2c1Cl | inhibition | H37Rv | 6.25 µg/mL |  | BACTEC |  | 0%
O=c1cc(-c2ccccc2)c2cc(Cl)ccc2o1 | MIC90 |  |  |  | resazurin | Rifampicin-resistant | >100 µg/mL
Nc1ncc2ncn(Cc3ccccc3)c2n1 | EC50 | H37Rv |  |  | BACTEC |  | >12.5 µg/mL
CCC(C)[C@H](C(=O)N[C@H](C(=O)N1CC[C@@H]2Oc3ccc(OC)c(c3)/C=C\NC(=O)[C@@H]3CCCN3C(=O)[C@H]21)C(C)C)N(C)C | MIC | H37Ra |  |  |  |  | 200 µg/mL
O=C(NNC(=S)Nc1ccccc1[N+](=O)[O-])c1sc2ccc(Cl)cc2c1Cl | inhibition | H37Rv | 6.25 µg/mL |  | BACTEC |  | 0%
C=C(OCC)c1nc(/C=C/c2ccccc2)nc2c1ncn2Cc1ccccc1 | EC50 | H37Rv |  |  | BACTEC |  | >12.5 µg/mL
C#CCN(CC#C)CCNc1ccnc2cc(Cl)ccc12 | MIC | H37Rv |  |  | resazurin |  | 12.5 µg/mL
Cc1c(Cl)c(=O)oc2cc(OCCN3CCN(Cc4ccc(Br)cc4)CC3)ccc12 | inhibition | H37Rv | 50 µM |  | fluorescence |  | 57.53%
O=C(CNc1cccc([N+](=O)[O-])c1)Sc1nnc(-c2ccncc2)o1 | MIC99 | H37Rv (ATCC 27294) |  |  | broth dilution / resazurin |  | 5.92 µg/mL
Nc1nc(/C=C/c2ccccc2)c2ncn(Cc3ccccc3)c2n1 | EC50 | H37Rv |  |  | BACTEC |  | >12.5 µg/mL
Cc1ccc2c(c1)nc1cc(Nc3ccc(Cl)cc3)c(=NC3CCCCCCC3)cc-1n2-c1ccc(Cl)cc1 | MIC | H37Rv (SM-resistant) |  |  |  |  | 0.1 µg/mL
O=C(N/N=C/CCCCCCCc1cccc(O)c1C(=O)O)c1ccncc1 | MIC | H37Rv |  |  |  |  | 0.5–10 µg/mL
C=C(C)/C=C/[C@]12C[C@H](C)[C@H]3CC[C@](C)(N)[C@@H](CC[C@H]1C)[C@@H]32 | inhibition | H37Rv | 64 µg/mL |  |  |  | 100%
CC1CCC2(CC1)SCC(=O)N2NC(=O)Cc1csc2nc(-c3ccccc3)cn12.O | inhibition | H37Rv | 6.25 µg/mL |  |  |  | 98%
C#CCNCCCCNc1ccnc2cc(Cl)ccc12 | MIC | H37Rv |  |  | resazurin |  | 15.6 µg/mL
O.O=C(Cc1csc2nc(-c3ccccc3)cn12)NN1C(=O)CSC12CCCCC2 | MIC | H37Rv |  | VERO |  |  | 6.25 µg/mL
Cc1ccc(Cl)c(NC(=S)NNC(=O)c2sc3ccc(Cl)cc3c2Cl)c1 | inhibition | H37Rv | 6.25 µg/mL |  | BACTEC |  | 0%
NCCCNc1ccnc2cc(Cl)ccc12 | MIC | H37Rv |  |  | resazurin |  | 125 µg/mL
Nc1ccc(N=Nc2cccc(N=Nc3cc(N=Nc4ccc(N=Nc5ccc(-c6ccc(N=Nc7ccc(O)c(C(=O)O)c7)cc6)cc5)c5ccccc45)c(N)cc3N)c2)c(N)c1.O=S([O-])O.[Na+].[Na+] | MIC | H37Rv |  |  | BACTEC |  | ≥128 µg/mL
COc1c(N2CC3CCCNC3C2)c(F)cc2c(=O)c(C(=O)O)cn(C3CC3)c12 | MIC |  |  |  | visual reading |  | 0.78 µg/mL
C[C@H](O)[C@H]1C(=O)N2C(C(=O)O)=C(S[C@@H]3CN[C@H](C(=O)N(C)C)C3)[C@H](C)[C@H]12 | MIC90 | H37Rv |  | THP-1 | luminescence |  | 17.01 µM
CCC(C)[C@H](C(=O)N[C@@H](CC(C)C)C(=O)N1CC[C@@H]2Oc3ccc(OC)c(c3)/C=C\NC(=O)[C@@H]3CCCN3C(=O)[C@H]21)N(C)C | MIC | H37Ra |  |  |  |  | 200 µg/mL
Cc1cc(=O)oc2cc(OCCN3CCC(Cc4ccccc4)CC3)ccc12 | inhibition | H37Rv | 100 µM |  | fluorescence |  | 91.82%
COc1ccc2nc(Cl)c(C#N)nc2c1 | inhibition | H37Rv | 6.25 µg/mL |  |  |  | 22%
N#Cc1ncnc2c1ncn2Cc1ccccc1 | EC50 | H37Rv |  |  | BACTEC |  | <12.5 µg/mL
CC1=C(C(=O)Nc2ccc(C)cc2)C(c2ccc(F)cc2)NC(=O)N1c1ccc(F)c(Cl)c1 | MIC | H37Rv |  |  | resazurin |  | >6.25 µg/mL
Cc1cc2nc(Cl)c(C#N)nc2cc1C | EC50 | H37Rv |  |  |  |  | >6.25 µg/mL
C=C(OCC)c1nc(/C=C/c2ccccc2)c2ncn(Cc3ccccc3)c2n1 | EC50 | H37Rv |  |  | BACTEC |  | <12.5 µg/mL
CCCCCCCCCCCCCCCCCCCC[C@@H](O)C(=O)N[C@@H](CO)[C@H](O)[C@H](O)CCCCCCCCCCCCCC | MIC | H37Rv |  |  |  |  | 127.8 µg/mL
Cc1cc2c(cc1C)[n+](=O)c(N1CCN(c3ccc([N+](=O)[O-])cc3)CC1)c(C#N)n2[O-] | inhibition | H37Rv | 6.25 µg/mL |  |  |  | 99%
CCCCOc1ccc(/C=N/NC(=O)CNC(=O)Nc2cccc([N+](=O)[O-])c2)cc1 | MIC bound | H37Rv |  |  | BACTEC |  | ≤12.5 µg/mL
CC1CCC/C(=N\NC(=O)Cc2csc3nc(-c4ccc(Cl)cc4)cn23)C1 | MIC | H37Rv |  |  |  |  | <6.25 µg/mL
CC(O)C1C(=O)N2C(C(=O)O)C=C(SC3CN(C4=NCCC4)C3)C12 | MIC | H37Rv |  |  | resazurin |  | 7.5 µM
O=c1ccc2ccc(OCCN3CCN(Cc4ccc(Br)cc4)CC3)cc2o1 | inhibition | H37Rv | 1 µM |  | fluorescence |  | 4.82%
CCOC(=O)C1=C(C)N(c2ccc(F)c(Cl)c2)C(=O)NC1c1ccc(OC)c(OC)c1 | MIC | H37Rv |  |  | resazurin |  | >6.25 µg/mL
O=C(NNC(=S)Nc1ccccc1)c1sc2ccc(Cl)cc2c1Cl | inhibition | H37Rv | 6.25 µg/mL |  | BACTEC |  | 0%
CC1CCC(=NNC(=O)Cc2csc3nc(-c4ccc(Cl)cc4)cn23)CC1 | EC50 | H37Rv |  |  |  |  | >6.25 µg/mL
CN[C@@H]1[C@H](O[C@H]2[C@H](O[C@H]3[C@H](O)[C@@H](O)[C@H](N=C(N)N)[C@@H](O)[C@@H]3N=C(N)N)O[C@@H](C)[C@]2(O)C=O)O[C@@H](CO)[C@H](O)[C@H]1O | MIC80 |  |  |  | broth dilution | Bedaquiline-resistant A63P | 0.3 µM
O=C(CNc1ccc([N+](=O)[O-])cc1)Sc1nnc(-c2ccncc2)o1 | MIC99 | H37Rv (ATCC 27294) |  |  | broth dilution / resazurin |  | 6 µg/mL
CC[C@H](CC[C@@H](C)[C@H]1CC[C@H]2[C@@H]3C[C@@H](O)C4=CC(=O)CC[C@]4(C)[C@H]3CC[C@]12C)C(C)C | MIC | H37Rv |  |  |  |  | 4.2 µg/mL
O=C(CNc1cccc(Cl)c1)Sc1nnc(-c2ccncc2)o1 | inhibition | H37Rv (ATCC 27294) | 0.1706 µM |  | BACTEC / radiometric |  | 32%
O=c1ccc2ccc(OCCN3CCC(Cc4ccccc4)CC3)cc2o1 | inhibition | H37Rv | 50 µM |  | fluorescence |  | 47.29%
CCC[C@@H]1C[C@@H](C(=O)N[C@@H]([C@H]2O[C@H](SC)[C@H](O)[C@@H](O)[C@H]2O)[C@H](C)Cl)N(C)C1 | MIC | H37Rv |  |  |  |  | >64 µg/mL
CC1CCC2(CC1)SC(C)C(=O)N2NC(=O)Cc1csc2nc(-c3ccccc3)cn12 | EC50 | H37Rv |  | VERO |  |  | <6.25 µg/mL
C#CCNCCNc1ccnc2cc(Cl)ccc12.[Cl][Pt+2][Cl] | MIC | H37Rv |  |  | resazurin |  | 125 µg/mL
N#Cc1c(N2CCN(c3ccc([N+](=O)[O-])cc3)CC2)[n+](=O)c2ccc(Cl)cc2n1[O-] | EC50 | H37Rv |  |  |  |  | <6.25 µg/mL
CC1CCC2(CC1)SC(C)C(=O)N2NC(=O)Cc1csc2nc(-c3ccc(Cl)cc3)cn12 | EC50 | H37Rv |  |  |  |  | <6.25 µg/mL
Cc1cc2nc(C#N)c(N3CCN(c4ccc([N+](=O)[O-])cc4)CC3)nc2cc1C | EC50 | H37Rv |  |  |  |  | >6.25 µg/mL
CC1=C(C(=O)Nc2ccc(C)cc2)C(c2cccc([N+](=O)[O-])c2)NC(=O)N1c1ccc(F)c(Cl)c1 | MIC | H37Rv |  |  | resazurin |  | >6.25 µg/mL
CCC1CCC2(CC1)SC(C)C(=O)N2NC(=O)Cc1csc2nc(-c3ccc(Cl)cc3)cn12 | inhibition | H37Rv | 6.25 µg/mL | VERO |  |  | 93%
O=C(NNC(=S)Nc1cccc(Cl)c1)c1sc2ccc(Cl)cc2c1Cl | inhibition | H37Rv | 6.25 µg/mL |  | BACTEC |  | 0%
O=C(CNc1ccccc1[N+](=O)[O-])Sc1nnc(-c2ccncc2)o1 | inhibition | H37Rv (ATCC 27294) | 0.0077 µM |  | BACTEC / radiometric |  | 92%
N#Cc1c(N2CCN(c3ccc([N+](=O)[O-])cc3)CC2)[n+](=O)c2ccccc2n1[O-] | MIC | H37Rv |  |  |  |  | >0.1 µg/mL
CO[C@H]1CCC[C@H]2C1=C(C(=O)O)N1C(=O)[C@H]([C@@H](C)O)[C@@H]21 | MIC | H37Rv |  |  | resazurin |  | 5 µM
O=C(CNc1ccccc1)Sc1nnc(-c2ccncc2)o1 | inhibition | H37Rv (ATCC 27294) | 0.0354 µM |  | BACTEC / radiometric |  | 64%